Assays:
[1] = molecular target: recombinant soluble homotrimeric HA of A/duck/Yangzhou/02/2005 - H8N4 (Influenza A virus …); assay: micro-array; captured IgG, V5-tagged trimeric HA
[2] = molecular target: recombinant soluble homotrimeric HA of A/chicken/Vietnam/NCVD-016/08 - H5N1 (Influenza A virus …); assay: micro-array; captured IgG, V5-tagged trimeric HA
[3] = molecular target: recombinant soluble homotrimeric HA of A/Egypt/3300-NAMRU3/08 - H5N1 (Influenza A virus …); assay: micro-array; captured IgG, V5-tagged trimeric HA
[4] = molecular target: recombinant soluble homotrimeric HA of A/northern shoveler/California/HKWF115/2007 - H6N1 (Influenza A virus A/northern …); assay: micro-array; captured IgG, V5-tagged trimeric HA
[5] = molecular target: recombinant soluble homotrimeric HA of A/Hong Kong/156/97 - H5N1 (Influenza A virus A/Hong Kong/156/97 …); assay: micro-array; captured IgG, V5-tagged trimeric HA
[6] = molecular target: recombinant soluble homotrimeric HA of A/Anhui/1/05 - H5N1 (Influenza A virus A/Anhui/1/2005 (H5N1))
[7] = molecular target: recombinant soluble homotrimeric HA of A/Netherlands/219/03 - H7N7 (Influenza A virus A/Netherlands/219/03 …)
[8] = molecular target: T1, hemagglutinin (HA) of influenza A/Wisconsin/67/05 H3N2 (Influenza A virus A/Wisconsin/67/2005 …); assay: ELISA, inactivated whole virions coated; transfection supernatant set 2
[9] = molecular target: T1, hemagglutinin (HA) of influenza …; assay: ELISA, inactivated whole virions coated; transfection supernatant set 3

B1: TCN-540 (5060_F05) (antibody, V domains shown)
VH: QVQLVQSGGGVVQPGRSLRLSCAASGFTFSSYAMHWVRQAPGKGLEWVAIISYDGNDQYYTDSVKGRFTISRDSSKVYLQMHRLRPEDTAVYYCAKEFETSGYFHGSFDYWGQGILVTVSS
VL: QSALTQPASVSGSPGQSITISCTGTSSDVGGYNYVSWYQQHPGKAPKLLIYEVTNWPSGVSNRFSGSKSGNTASLTISGLQAEDEADYYCSSYAGSSTWVFGGGTRVTVL
[1]
  Trimeric HA Binding: RLU: 6080 RLU
[2]
  Trimeric HA Binding: RLU: 1510 RLU
[3]
  Trimeric HA Binding: RLU: 15600 RLU
[4]
  Trimeric HA Binding: RLU: 2460 RLU
[5]
  Trimeric HA Binding: RLU: 1550 RLU
[6]
  Trimeric HA Binding: RLU: 2190 RLU
[7]
  Trimeric HA Binding: RLU: 4390 RLU

B2: TCN-543 (5081_G23) (antibody, V domains shown)
VH: QVHLVQSGAEVRKPGDSVKVSCKTSGYTFSTYPVAWVRQVPGQGLEWMGWISTYNGNTNFAQNFQGRVTLTTDTTTNTAYMEVRSLKFDDTAVYYCARVEGSYRDFWNNQNRFDPWGQGTLVTVSS
VL: SYVLTQPPSVSVAPGQTARISCGGSNIGGKSVHWYQQKPGQAPVLVVYDDSGRPSGIPERFSGSNSGDTATLTISRVEAGDEADYFCQVWDNFGGVFGTGTKVTVL
[1]
  Trimeric HA Binding: RLU: 13100 RLU
[2]
  Trimeric HA Binding: RLU: 5880 RLU
[3]
  Trimeric HA Binding: RLU: 17600 RLU
[4]
  Trimeric HA Binding: RLU: 2510 RLU
[5]
  Trimeric HA Binding: RLU: 1430 RLU
[6]
  Trimeric HA Binding: RLU: 2630 RLU
[7]
  Trimeric HA Binding: RLU: 12900 RLU

B3: TCN-547 (5092_F11) (antibody, V domains shown)
VH: QVQLQESGPGLVKPSQTLSLTCTVSGDSISSVDHYWSWIRQHPVKGLEWIGFMYYSASTYYNPSLKSRVTISTDTSKNQFSLRLSSVTAADTAVYYCARGTCAGDCSLHYYYYGLDVWGQGRTVTVSS
VL: DIQMTQSPSSLSASVGDRVTITCRASQSISSYLNWYQHKPGKAPKVLMYAVSILQSGVPSRFSGSGSGADFTLTISSLQPEDFATYYCQQSYSSPLTFGGGTKVEIK
[1]
  Trimeric HA Binding: RLU: 3340 RLU
[2]
  Trimeric HA Binding: RLU: 1320 RLU
[3]
  Trimeric HA Binding: RLU: 16800 RLU
[4]
  Trimeric HA Binding: RLU: 2620 RLU
[7]
  Trimeric HA Binding: RLU: 2090 RLU

B4: TCN-557 (5081_A04) (antibody, V domains shown)
VH: QVQLVQSGAEVKKPGASVKVSCKASGHTFTGYYIHWVRQAPGQGLEWMGWINPDSGATSSAQNFQGRVTMTGDTSSSTAYMELSRLSFDDTAVYYCARVLFTSPFDFWGEGTLVTVSS
VL: QAVVTQEPSLAVSPGGTVTLTCGSSTGAVTRGHYPYWFQQKPGQAPRALIYDSAGNRHSWTPARFSGSLLGGKAALTLSGAQPEDEAEYYCLLSYSGVWVFGGGTKLTVL
[1]
  Trimeric HA Binding: RLU: 24000 RLU
[2]
  Trimeric HA Binding: RLU: 23300 RLU
[4]
  Trimeric HA Binding: RLU: 49600 RLU
[5]
  Trimeric HA Binding: RLU: 27100 RLU
[6]
  Trimeric HA Binding: RLU: 20000 RLU
[7]
  Trimeric HA Binding: RLU: 53700 RLU

B5: TCN-522 (3212_I12) (antibody, V domains shown)
VH: QVQLQQWGAGLLKPSETLSLTCTVSGGSLTDYSWNWIRQPPGKGLEWIGDTLHNGYTNYNPSLRGRVSISIDTSKNQVSLRLTSVTAADTALYYCARGSGGYGGFDYFGKLRTWDFWGQGTLVTVSS
VL: DIQLTQSPSSLSASVGDRVTITCRASQGIRNDLGWYQQKPGNAPKRLIFGASSLQSGVPSRFSGSGSGTEFTLTISSLQPEDFATYYCLQHNSYPYTFGQGTKLEIK
[8]
  OD450: 0.07 OD450

B6: TCN-526 (5084_C17) (antibody, V domains shown)
VH: EVLMVESGGGLVQPGGSVRLSCVASGFSFSSHWMTWVRQAPGKGLEWVANIEDDGGDKYYVDSVKGRFIISRDNAKNSVYLQMNSLRAEDTAVYFCARGSGSSDRSDYDPHYYYYLDVWGKGATVTVSS
VL: DIQLTQSPSSLSASVGDRVTITCRASQSISRYLNWYQQKPGKAPKLLLFAASTLLDGVPSRFSGSGSGTDFTLTISSLQPEDFATYYCQRNHSPSWTFGQGTRVEIK
[8]
  OD450: 0.31 OD450

B7: TCN-527 (5086_C06) (antibody, V domains shown)
VH: QVQLQESGPGLVKPSETLSLNCAVSGGSISNYYWSWIRQPPGKGLEWIGYISYNGRPKYNPSLTSRVTISVDTSKDQFSLELRSVTAADTALYYCARETRFGELLSPYDAFEIWGQGTMVTVSS
VL: DIQMTQSPSSLSASVGDRVTMTCRASQNIRSYLNWYQQRPGTAPKLLIYAASTLHSGVPSRFSGGGSGTDFTLTINNLQPEDFASYYCQQSYDNPQTFGQGTKVEIK
[8]
  OD450: 0.14 OD450

B8: TCN-528 (5087_P17) (antibody, V domains shown)
VH: QVQLVQSGSEVKKPGASVKVSCKASGYTFTNYDINWIRQAPGQGLEWMGWINPNSGTTGSAQRFQGRVTITVDTSITTVYMELSSLRSDDTAIYYCARGRELLRLQHFLTDSQSERRDCFDPWGQGTLVTVSS
VL: DIQMTQSPSSLSASVGDRVTITCRANQDIGIYLNWYQQNPGKVPKLLLHGASSLQGGVPSRFSASGSGTDFTLTIHSLQPEDLATYYCQQSRRLPYTFGQGTRVELK
[8]
  OD450: 0.23 OD450

B9: TCN-563 (5237_B21) (antibody, V domains shown)
VH: QVQLAQSGAEVKRPGSSVKVSCTASGGIFRKNAISWVRQAPGQGLEWMGGIIAVFNTANYAQKFQGRVKITADESGNTAYMELSSLRSDDTAVYYCASHPKYFYGSGSYPDFWGQGTLVTVSS
VL: QSALTQPRSVSGSPGQSVTISCTGSSSDVGASNSVSWYQQHPGKAPKLVIYDVTERPSGVPHRFSGSKSGNTASLTVSGLQPEDEADYFCCAYGGKYLVVFGGGTKVTVL
[8]
  OD450: 0.09 OD450

B10: TCN-531 (5091_H13) (antibody, V domains shown)
VH: EVQLVESGGDLVQPGRSLKLSCTGSGFTFGDYGVTWVRQAPGKGLEWVGFIRTRPWGGTADTAASVKGRFTISRDDSKSLAYLQMNSLKTEDTAVYYCCRDAPPNVEVASMTNWYFDLWGRGTLVTVSS
VL: DIQLTQSPSSLSASVGDRVTITCRASQGILNCLAWYQQKPGKVPNLLMYAASTLQSGVPSRFSGSGFGTDFTLTISSLQPEDVATYYCQTYGGVSTFGGGTKVEIR
[9]
  OD450: 3.59 OD450

B11: TCN-530 (5248_H10a) (antibody, V domains shown)
VH: QVQLVQSGAEVRKPGSSVKVSCKASGGPFMSYAIGWVRQAPGQGLEWMGGINPVFGRPHYAQKFQGRVTIATDDSTKTSYMELSSLTSEDTGMYYCASRYSRSSPGTFESWGQGTLVTVSS
VL: EIVMTQFPATLSVSPGERVTLSCRASQSVSNNLAWYQQKPGQPPRLLIYDASTRATGVPAKFSGTGSGTEFTLSISSLQSEDFAVYYCQQYHNWPPSYSFGLGTKLEIK
[9]
  OD450: 0.21 OD450

B12: TCN-529 (5297_H01) (antibody, V domains shown)
VH: QITLRESGPTLVKPTQTLTLTCTFSGFSLSTNGVNVGWIRQPPGKALEWLALIYWDDDKRYSPSLKRRLTITKDTSKNQVVLTLTNMDPVDTATYYCAHRPDFYGDFEYWGPGTLVTVSS
VL: QSALTQPASVSGSPGQSITISCTGSSSDIGGYNYVSWYQQHPGKAPKLMIYDVNNRPSGVSNRFSGSKSGNTASLTISGLQTDDEADYYCGSYTGSPHYVFGTGTKVTVL
[9]
  OD450: 3.65 OD450

B13: TCN-533 (5256_A17) (antibody, V domains shown)
VH: QVQLVQSGADVKKPGSSVTVSCKASGGSFSNYGINWVRQAPGQGLEWMGGIIPLINAPNYAPKFQGRVTITADMFSNIVSLQLTSLRTDDTAVYYCARRKMTTAIDYWGQGTLVTVSS
VL: QPVLSQPPSASASLGASVTLTCTLSSGFDNYQVAWYQQRPGKGPRFVMRVGNGGNVASKGDGIPDRFSVSGSGLNRYLTIKNIQEDDESDYYCGADHGSGNNFVSPYVFGGGTKLTVL
[9]
  OD450: 0.22 OD450

B14: TCN-532 (5262_H18) (antibody, V domains shown)
VH: QVQLQESGPGLVKPSETLSLTCTVSGGSVSSETYYWSWIRQPPGKGLEWIGYIYYIGNTDYRPSLKSRVTISLDTSKNQFSLKLSSVTAADTAVYYCARGAYYDSSGYPAFYIWGQGTMVTVSS
VL: QSVLTQPPSVSGAPGQRVTISCTGSSSNIGSDYDVHWYKQLPGTAPKLLIFGNSNRPSGVPDRFSGSKSGTSASLAITGLQAEDEADYYCQSYDSSLSGFHVFGSGTKVTVL
[9]
  OD450: 3.43 OD450

— patent US20120207760A1, “Compositions and Methods for the Therapy and Diagnosis of Influenza” (THERACLONE SCIENCES, published 2012)
